A mixed list of measured activities; the numbers were collected in NIAID ChemDB.

Common to all: tests in culture; organism: Mycobacterium tuberculosis

Percent inhibition refers to the dose given; in toxicity tests it is the harm to the cells. a–b is a range or a potency band. Rows are shuffled and stem from different studies. Blank or dashed fields: not listed here. MIC bound comes from a single tested concentration. A number after MIC or MFC names an inhibition level or a share of isolates. ECn: concentration that inhibits the pathogen or its effect by n%.

smiles,strain or isolate,tested at,changes,read by,measure,result
CC(C)(C)c1ccccc1OCCCON1C(N)=NC(N)=NC1(C)C,H37Rv,-,Overexpressing DHFR,resazurin / fluorescence,MIC90,2 µM
FC(F)(F)c1ccccc1Nc1nc(-c2ccccc2)cs1,H37Rv,-,-,visual reading,MIC,>20 µM
O=C1NC(=S)N/C1=C/c1cccc(OCc2ccc(Cl)cc2Cl)c1,H37Rv,-,-,BACTEC,EC50,<6.25 µg/mL
NNC(=O)c1ccncc1,H37Rv (ATCC 25618),-,-,broth dilution,MIC,0.06 µg/mL
CO[C@H]1/C=C/O[C@@]2(C)Oc3c(C)c(O)c4c(O)c(c(/C=N/N5CCN(C)CC5)c(O)c4c3C2=O)NC(=O)/C(C)=C\C=C\[C@H](C)[C@H](O)[C@@H](C)[C@@H](O)[C@@H](C)[C@H](OC(C)=O)[C@@H]1C,35822,-,Isoniazid-resistant,broth dilution,MIC80,0.04 µM
CO[C@H]1/C=C/O[C@@]2(C)Oc3c(C)c(O)c4c(O)c(cc(OCC(=O)N5CCCCC5)c4c3C2=O)NC(=O)/C(C)=C\C=C\[C@H](C)[C@H](O)[C@@H](C)[C@@H](O)[C@@H](C)[C@H](OC(C)=O)[C@@H]1C,H37Rv,-,-,-,MIC,0.005 µg/mL
CCCCC/C(CC1NC(=S)NC1=O)=N\NC(=O)c1ccncc1,-,-,inhA 15C to T,visual reading / absorbance,MIC,6.3 µM
CC1(C)NC(N)N=C(N)N1OCCCOc1ccc2ccccc2c1,H37Rv,-,-,resazurin / fluorescence,MIC90,2 µM
O=C1NC(=S)N/C1=C/c1ccc2c(c1)OCO2,H37Rv,6.25 µg/mL,-,BACTEC,inhibition,0%
COc1cc2c(cc1OC)CN(c1nc3c(cc1[N+](=O)[O-])c(=O)c(C(=O)O)cn3C(C)(C)C)CC2,ATCC35801,-,-,-,MIC,0.86 µM
CC1CCCCN1C(=S)SCN1C(=O)c2ccccc2S1(=O)=O,H37Rv,-,-,-,MIC,1.56 µg/mL
NNC(=O)c1ccncc1,ATCC35801,-,-,-,MIC,0.36 µM
O=C1NC(=S)N/C1=C/c1ccc(F)cc1,H37Rv,-,-,BACTEC,EC50,<6.25 µg/mL
CN[C@@H]1[C@H](O[C@H]2[C@H](O[C@H]3[C@H](O)[C@@H](O)[C@H](N=C(N)N)[C@@H](O)[C@@H]3N=C(N)N)O[C@@H](C)[C@]2(O)C=O)O[C@@H](CO)[C@H](O)[C@H]1O,H37Rv Erdman,-,-,broth dilution,MIC,0.125–0.25 µg/mL
CCCc1ccc2oc(-c3ccc4c(c3)OCO4)c(C)c2c1,H37Rv,-,-,resazurin / absorbance,MIC,250 µg/mL
COc1cc2cccnc2c2[nH]cc(C(=O)O)c(=O)c12,H37Rv,-,-,BACTEC,MIC bound,>12.5 µg/mL
O=C(CCN1C(=O)CCC1=O)Nc1ccc(N2CCCCC2)cc1,H37Ra,-,-,-,MIC,≤20 µg/mL
O=C1NC(=S)NC1=C1CCCCC1,H37Rv,6.25 µg/mL,-,BACTEC,inhibition,0%
CC1COc2c(N3CCN(C)CC3)c(F)cc3c(=O)c(C(=O)O)cn1c23,BCG,-,-,resazurin,MIC,0.16 µg/mL
O=C([C@@H](O)CO)N1CC=C(c2c(F)cc(N3C[C@H](COc4ccon4)OC3=O)cc2F)CC1,H37Rv (ATCC 35811),-,-,broth dilution,MIC,0.5 µg/mL
COc1ccc(CC(N=Cc2ccc3c(c2)OCO3)C(=O)NC2C(CO)OC(n3cnc4c(N(C)C)ncnc43)C2O)cc1,H37Rv,12.5 µg/mL,-,BACTEC,inhibition,95%
O=C1NC(=S)N/C1=C/c1ccc(Cl)cc1Cl,H37Rv,-,-,BACTEC,EC50,>6.25 µg/mL
CC1CCCN(C(=S)SCN2C(=O)c3ccccc3S2(=O)=O)C1,H37Rv,-,-,-,MIC,0.78 µg/mL
O=C(CN1C(=O)CCC1=O)Nc1ccc(N2CCCCC2)cc1,Clinical isolate (isoniazid-resistant),-,-,-,MIC,≤20 µg/mL
NNC(=O)c1ccncc1,1620-6,-,-,-,MIC,0.05 µg/mL
CCCCCCCCCN1C(=O)CC(C)C1=O,H37Ra,-,-,-,MIC,≤20 µg/mL
CN1CCN(c2cc3c(cc2F)c(=O)c(C(=O)O)cn3C2CC2)CC1c1ccccc1,ATCC35801,-,-,-,MIC,0.93 µM
CC(=O)Nc1ccc(C(=O)NNC2=C(NNC(=O)c3ccc(NC(C)=O)cc3)C(=O)c3ccccc3C2=O)cc1,H37Rv,-,-,BACTEC,MIC bound,>12.5 µg/mL
CC1COc2c(N3CCN(C)CC3)c(F)cc3c(=O)c(C(=O)O)cn1c23,-,-,Bedaquiline-resistant A63P,broth dilution,MIC80,0.7 µM
CCc1ccccc1OCCCON1C(N)=NC(N)=NC1(C)C,H37Rv,-,Overexpressing DHFR,resazurin / fluorescence,MIC90,2 µM
O=C1NC(=S)N/C1=C/c1cc(F)cc(F)c1,H37Rv,-,-,BACTEC,EC50,<6.25 µg/mL
C#CC(C)(O)C=C,H37Rv,6.25 µg/mL,-,resazurin,inhibition,3%
Cc1cccc(C)c1Nc1nc(-c2cccnc2)cs1,H37Rv,-,-,visual reading,MIC,>20 µM
Nc1nn2cnnc2s1,H37Rv,-,-,BACTEC,MIC,≥128 µg/mL
O=c1ccc2ncccc2n1CCN1CCC(NCc2cc(Cl)c(Cl)cn2)CC1,BCG,-,-,resazurin,MIC,0.12 µg/mL
CSC(SC)=C(C#N)C(=O)Nc1ccc(Cl)cc1,H37Rv,-,-,BACTEC,MIC bound,>12.5 µg/mL
CCCCCCCCCNC1CC(=O)N(CCCCCCCCC)C1=O,H37Ra,-,-,-,MIC,≤20 µg/mL
O=C(O)c1cn2c(n1)CN(c1cc3c(cc1[N+](=O)[O-])c(=O)c(C(=O)O)cn3C1CC1)CC2,ATCC35801,-,-,-,MIC,3.78 µM
CC(=O)NC[C@H]1CN(c2ccc(N3CCOCC3)c(F)c2)C(=O)O1,10 isolates (isoniazid rifampin-resistant),-,-,-,MIC50,0.25 µg/mL
C=C1CC(=O)N(CCCCCCCC)C1=O,Clinical isolate (isoniazid-resistant),-,-,-,MIC,≤20 µg/mL
c1ccc(NP2(Nc3ccccc3)=NP(Nc3ccccc3)(Nc3ccccc3)=NP(Nc3ccccc3)(Nc3ccccc3)=N2)cc1,H37Rv,-,-,BACTEC,MIC,≥128 µg/mL
CCN(CC)N(CC)C(=O)COc1cc2c(O)c3c(O)c(C)c4c(c13)C(=O)[C@@](C)(O/C=C/[C@H](OC)[C@@H](C)[C@@H](OC(C)=O)[C@H](C)[C@H](O)[C@H](C)[C@@H](O)[C@@H](C)/C=C/C=C(/C)C(=O)N2)O4,H37Rv,-,-,-,MIC,0.15 µg/mL
COc1ccc2c(c1OC)C(Cc1ccccc1)[N+]1(C)CCc3cc4c(cc3C1C2)OCO4.[I-],H37Rv,12.5 µg/mL,-,BACTEC,inhibition,0%
O=C(CO)Nc1nc(-c2ccccn2)cs1,H37Rv,-,-,visual reading,MIC,>20 µM
CC[C@@H](CO)NCCN[C@@H](CC)CO,17003,-,Ethambutol-resistant,broth dilution,MIC80,>20 µM
CN1CCN(C(=S)SCN2C(=O)c3ccccc3S2(=O)=O)CC1,H37Rv,-,-,-,MIC,6.25 µg/mL
O=C1NC(Nc2ccc(Cl)cc2)=N/C1=C\c1ccccc1Cl,H37Rv,12.5 µg/mL,-,-,inhibition,99%
O=C(N/N=C(\c1nc2ccc([N+](=O)[O-])cc2[nH]c1=O)C(O)c1ccc([N+](=O)[O-])cc1)c1ccncc1,H37Rv,-,KatG G385V,visual reading / absorbance,MIC,50 µM
CC1(C)N=C(N)N=C(N)N1OCCCOc1ccc(Cl)cc1Cl,H37Rv,-,-,resazurin / fluorescence,MIC90,0.7 µM
C/C=C/c1ccc2oc(-c3ccc(OC)c(OC)c3)c(C)c2c1,Clinical isolate 91,-,isoniazid and streptomycin resistant,resazurin / absorbance,MIC,3.9 µg/mL
CO[C@H]1/C=C/O[C@@]2(C)Oc3c(C)c(O)c4c(O)c(c(/C=N/N5CCN(C6CCCC6)CC5)c(O)c4c3C2=O)NC(=O)/C(C)=C\C=C\[C@H](C)[C@H](O)[C@@H](C)[C@@H](O)[C@@H](C)[C@H](O)[C@@H]1C,Atencio,-,-,-,MIC,0.06 µg/mL
O=C1NC(=S)N/C1=C/c1cccc(OCCc2ccccc2)c1,H37Rv,-,-,BACTEC,EC50,<6.25 µg/mL
CCCc1ccc2oc(-c3ccc(O)c(OC)c3)c(C)c2c1,Clinical isolate 57,-,-,resazurin / absorbance,MIC,7.8 µg/mL
Cc1c(N)nc([C@H](CC(N)=O)NC[C@@H](N)C(N)=O)nc1C(=O)N[C@H](C(=O)NC(C)C(O)CC(=O)NC(C(=O)NC(OC1OC(C)C(N)C(O)C1O)C(O)c1nc(-c2nc(C(=O)NCCCCN)cs2)cs1)[C@H](C)O)C(OC1OC(CO)C(O)C(O)C1OC1OC(CO)C(O)C(OC(N)=O)C1O)c1cnc[nH]1.Cl.Cl.Cl.Cl,TAC-R,-,-,-,MIC,0.1 µg/mL
O=C1c2ccccc2S(=O)(=O)N1CSC(=S)N1CCCCC1,H37Rv,6.25 µg/mL,-,-,inhibition,99%
Cc1cccc(C)c1Nc1nc(-c2cnccn2)cs1,H37Rv,-,-,visual reading,MIC,20 µM
Nc1nnc2nc(CC(=O)/C=C/c3ccccc3)c(CC(=O)/C=C/c3ccccc3)nn12,H37Rv,12.5 µg/mL,-,BACTEC,inhibition,12%
CCCCCCCCCN1C(=O)CC(SCCNC(=O)c2ccc([N+](=O)[O-])cc2)C1=O,H37Rv,-,-,-,MIC,≤20 µg/mL
CCCN(CCC)N(CC)C(=O)COc1cc2c(O)c3c(O)c(C)c4c(c13)C(=O)[C@@](C)(O/C=C/[C@H](OC)[C@@H](C)[C@@H](OC(C)=O)[C@H](C)[C@H](O)[C@H](C)[C@@H](O)[C@@H](C)/C=C/C=C(/C)C(=O)N2)O4,H37Rv,-,-,-,MIC,0.18 µg/mL
O=C1NC(NNC(=O)c2ccncc2)=N/C1=C\c1ccccc1Cl,Capreomycin-resistant,-,-,-,MIC,≤1.56 µg/mL
CCOC(=O)C(C1=C(O)c2ccccc2C(=O)C1=O)C1=C(O)c2ccccc2C(=O)C1=O,H37Rv,-,-,BACTEC,MIC,≥12.8 µg/mL
CCCCCCN1C(=O)C=CC1=O,H37Ra,-,-,-,MIC,≤20 µg/mL
O=C1NC(NNC(=O)c2ccncc2)=N/C1=C\c1ccc(Cl)cc1,Ethambutol-resistant,-,-,-,MIC,3.13 µg/mL
NC(=O)C(=O)CC(=O)c1ccccc1NC1=CC(=O)C(=O)c2ccccc21,H37Rv,6.25 µg/mL,-,resazurin,inhibition,100%
CCOC(=S)SCN1C(=O)c2ccccc2S1(=O)=O,H37Rv,-,-,-,MIC,6.25 µg/mL
CCCCCCCCCN1C(=O)CC(NCCCCCCCC)C1=O,H37Rv,-,-,-,MIC,≤20 µg/mL
O=C1NC(NNC(=O)c2ccncc2)=N/C1=C\c1c(Cl)cccc1Cl,H37Rv,-,-,resazurin,MIC,>12.5 µg/mL
Cl.Cl.N=C(N)c1ccc2oc3ccc(C(=N)N)cc3c(=O)c2c1,H37Rv,-,-,BACTEC,MIC,≥12.5 µg/mL
C=C(C)C1CC=C(C)/C(=N/NC(=O)c2cccnc2)C1,H37Rv,-,KatG S315R,visual reading / absorbance,MIC,50 µM
Cc1nn(C)c2c(N)n[nH]c12,H37Rv,-,-,BACTEC,MIC bound,>128 µg/mL
COc1ccc(/C=C2/NC(=S)NC2=O)c(OC)c1,H37Rv,-,-,BACTEC,EC50,<6.25 µg/mL
CC(CCC1=NC(C)(C)CO1)C1CCC2C3C(O)CC4CC(O)CCC4(C)C3CCC12C,H37Rv,12.5 µg/mL,-,BACTEC,inhibition,11%
Cc1ccccc1Cn1ccc2c3c(N)nc(N)nc3ccc21,H37Rv,-,Overexpressing DHFR,resazurin / fluorescence,MIC90,15.6 µM
Cc1cc(NNc2ccc([N+](=O)[O-])cn2)c2ccccc2c1N=Nc1ccc([N+](=O)[O-])cn1,H37Rv,12.5 µg/mL,-,BACTEC,inhibition,1%
CCCN(C(=O)COc1cc2c(O)c3c(O)c(C)c4c(c13)C(=O)[C@@](C)(O/C=C/[C@H](OC)[C@@H](C)[C@@H](OC(C)=O)[C@H](C)[C@H](O)[C@H](C)[C@@H](O)[C@@H](C)/C=C/C=C(/C)C(=O)N2)O4)N(C)C,H37Rv,-,-,-,MIC,0.15 µg/mL
Nc1cc2oc3ccccc3c2c2cccnc12,H37Rv,12.5 µg/mL,-,BACTEC,inhibition,65%
CC(=O)OCC(=O)Nc1nc(-c2ccccn2)cs1,H37Rv,-,-,visual reading,MIC,>20 µM
CCCCN(CCCC)c1c([N+](=O)[O-])c(=O)nc2ccccn12,H37Rv,-,-,resazurin,MIC bound,>6.25 µg/mL
CCCCCCCCCN1C(=O)CC(C)(SCC(N)C(=O)O)C1=O,H37Rv,-,-,-,MIC,≤20 µg/mL
CN1CCC=C(C(=O)O)C1,H37Rv,-,-,BACTEC,MIC bound,>12.8 µg/mL
O=C(NN1C(=O)CS(=O)(=O)C1c1ccc(C(F)(F)F)cc1)c1ccncc1,-,-,inhA 15C to T,visual reading / absorbance,MIC,12.5 µM
Cc1cc2c(=O)cc(-c3ccncc3)oc2c(C(=O)O)c1C,H37Rv,-,-,BACTEC,MIC bound,>12.5 µg/mL
O=C1NC(=S)N/C1=C/C=C/c1ccccc1,H37Rv,6.25 µg/mL,-,BACTEC,inhibition,94%